Human monoclonal antibodies against the spike receptor-binding domain (heavy:light variable regions). IC50 against pseudoviruses bearing the spike of naturally observed variants; lower = stronger; >10 µg/ml means not reached at the top dose. No active / inactive call. The stated detection limit is 0.0005 µg/ml; values near or below 0.001 µg/ml lie at the floor of the assay.
B1: BD56-058 (protein)
chain 1: EVQLVESGGGLVQPGRSLRISCAASGFTFEDYGIHWVRQAPGKGLEWVSGITWNGGTIGYADSVKGRFIISRDNAKNSMYLHMSRLGIEDTAVYYCAKEWGRVTTVRGVVVDTYYAMDVWGQGTTVTVSS
chain 2: QSALTQPPSASGSPGQSVTISCTGTSSDVGGYHSVSWYQQHPGTAPKLIIYEVTRRPSGVPHRFSASKSGNTASLTVSGLQAEDEADYYCSSYAGNNNFEGVVFGGGTKLTV
B2: BD56-020 (protein)
chain 1: QVQLVQSGAEVKKPGSSVKVSCKASGGTFSSDTISWVRQAPGQGLEWMGGIIPMFGSTNYAQKFQGRVTITADESTSTAYMELNSLRSEDTAVYYCARDWKPGGYSGYDWTDMYYFDYWGQGTLVTVSS
chain 2: DIVMTQSPDSLAVSLGERATINCKSSQSVLYSSNNKNYLTWYQQKPGQPPKLLIYGASTRESGVPDRFSGSGSGTDFTLTISSLQAEDVAVYYCQQYYSIPRTFGQGTKVEIK
B3: Ehling_mAb-50 (protein)
chain 1: QVQLQESGPGLVNPSETLSLTCGVSGYSISSGFYWGWIRQPPGKGLEWIGSIYHRGSTFYNPSLKSRVTISVDRSKNQFSLRLSSVTAADTAVYYCARGEVLTSGGYNARFDPWGQGTLVTVSS
chain 2: DIQMTQSPSTLSASVGDSVTITCRASQSISLWLAWYQQKPGKAPKVLIYETSSLESGVPSRFSGSGAGTEFTLTISSLQPDDFATYYCQQYISYPLTFGGGTKVEIK
B4: BD56-031 (protein)
chain 1: QVQLVQSGAEVKKPGSSVKVSCKASGGTFSIYAISWVRQAPGQGLEWMGRIIPNFGIANFAQRFQGRVTITADKSTSTAYMELSSLRSEDTAVYYCARGVESSGYLDHDAFDIWGQGTLVTVSS
chain 2: DFQMTQSPSSLSASVGDRVTITCRASQSISSYLNWYQQKPGEAPKLLIYAASTLQSGVPSRFSGSGSGTDFTLTISNLQPEDFATYYCQQSYSATQTFGQGTKVEIK
B5: BD56-042 (protein)
chain 1: QVQLVESGGGVVQPGRSLRLSCAASGLTFSSYGMHWVRQAPGKGLEWVAVIWYDGSTKYYADSVKGRFTISRDNSKNTLYLQMNSLRAEDTAVYYCAKDLQGSAWYTFDDWGQGTLVTVSS
chain 2: NFMLTQPHSVSESPGKTVTISCTRSSGFIASNYVQWYQQRPGSAPTTVIYEDNQRPSGVPDRFSGSIDSSSNSASLTISGLKTEDEADYYCQSYDSSFHLVVFGGGTKLTVL
B6: BD56-033 (protein)
chain 1: QVQLVESGGGVVQPGRSLRLSCAASGFTFSNYAFHWVRQAPGKGLEWVALISDDGRDKFYADSVKGRFTISRDNSKNTLSLQMNSLRGDDTAVYFCARDDRTVSPVSFFDCWGQGTLVTVSS
chain 2: DIQMSQSPSSLSASVGDRVTITCRASQSIQNYLNWYQFSPGKAPKLLIFDASSLQSGVPSRFSGSGSGTEFTLTISSLHPEDFATYYCQQSYNTPPWTFGQGTKVEIK
B7: BD56-008 (protein)
chain 1: EVQLVQSGGGLVQPGGSLKLSCAASGFTFSGSAIYWVRQASGKGLEWVGRIRSRANSYATAYAASVKGRFSISRDDSKNTAYLQMNSLKMEDTAVYYCTRHGTEGVDLVPTIPWNWLDPWGQGTLVTVFS
chain 2: QSVLTQPPSVSGAPGQRVTISCTGSSSNIGAGYDVHWYQQLPGRAPKLFIYGNTNRPSGVPDRFSGSKSGTSASLAITGLQAEDEADYYCQSYDNSLSGSEVFGTGTKVTVL
B8: BD56-052 (protein)
chain 1: EVQLVESGGGLVQPGGSLRLSCAASGFAFSRYDMHWVRQGTGKDLEWVSTIGTGGDTYYADSVKGRFTISRENAHNSLNLQVNSLRAEDTAVYHCARGGQDDLGWYFDLWGRGTLVTVSS
chain 2: DIQMTQSPSSLSASIGDRVTITCRARQSISSYLNWYQQRPGKAPKLLIYAASTLQSGVPSRFSGSGSGTDFTLTISSLQPEDFATYYCQQSYTMPPVTFGPGTRVDIK
B9: BG4-25 (protein)
chain 1: EVQLVESGGGLIQPGGSLRLSCAASGITVVRNYMTWVRQAPGKGLEWVSVIYSGGTTYYADSVKGRFTISRDNSKNTMYLQMNSLRAEDTAIYYCARDLEVVGAMDVWGQGTTVTVSS
chain 2: EIVLTQSPGTLSLSPGERATLSCRASQSVPSSYLAWYQQKPGQAPRLLIYGASSRATGIPDRFSGSGSGTDFTLTISRLEPEDFAVYYCQQYGSPMYTFGQGTKLEIK
B10: BD56-038 (protein)
chain 1: EVQLVESGGGLVQPGGSLRLSCEASGFTFSRYWMHWVRQAPGKGLVWVSRINSDGSRTNYVDSVKGRFTISRDNAKNTLYLQLNSLRAEDTAVYYCARDLEYYDRSGDYKSDCYFDYWGQGTLVTVSS
chain 2: QSALTQPPSVSGAPGQRVTISCTGSSSNIGAGYDVHWYQHLPGTAPKALIYGNTNRPSGVPDRFSGSRSGTSASLAITGLQAEDEGIYYCQSYDSSLSVLFGGGTKLTVL
B11: BD56-056 (protein)
chain 1: EVQLVESGGGLVKPGGSLRLSCAASGFLFSSYTMNWVRQTPGKGLEWVSSISSNSDYKQYADSVKGRFTISRDNAKNSLSLQMNSLRADDTAVYYCAREGSYDILSPDPLDLWGQGTMVSVSS
chain 2: EIVMTQSPATLSVSPGERATLSCRASQSVSSNLAWYQQKPGQAPRLLIYGASTRATGIPARFSGSGSGTEFTLTISSLQSEDFAVYYCQQYHMWPSYTFGQGTKLEIK
B12: BD56-048 (protein)
chain 1: EVQLVESGGGLVQPGRSLRLSCAASGFIFEDYDMHWVRQAPGKGLEWVSGSSWNSGTIGYADSVQGRFTIIRDNAHNSVYLQMNRLRVEDTALYFCAKEDRKGDSGDDRPFDYWGQGTLVTVSS
chain 2: SYVLTQPPSVSVAPGQTARITCEGNNIGSKSLHWYQQKPGQAPVLVVYDDGDRPSGIPERFSGSNSGNTATLTISRVEAGDEADYYCQVWDSSGDHSYVFGTGTKVSVL

Biological target: SARS-CoV-2 Omicron BA.1 spike pseudovirus
Assay: pseudovirus neutralization IC50; higher = weaker neutralization
Experimental: (§1)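 Single-round VSV luciferase pseudovirus mixed with antibody dilutions for 1 h and put on Huh-7 cells for about a day; IC50 from the dose curve.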

Going from B1 to B2, the “pseudovirus neutralization IC50” value rises from 0.0162 µg/mL to 0.407 µg/mL (25-fold).

First: B3
Second: B4
The “pseudovirus neutralization IC50” value of the first is higher: > 10 µg/mL for the first, 0.00732 µg/mL for the second.

B5 and B6 cannot be ordered by “pseudovirus neutralization IC50” value: > 10 µg/mL for the first, > 10 µg/mL for the second.

B7 and B8 cannot be ordered by “pseudovirus neutralization IC50” value: > 10 µg/mL for the first, > 10 µg/mL for the second.

First: B9
Second: B10
The “pseudovirus neutralization IC50” value of the first is 2.6-fold lower: 1.97 µg/mL for the first, 5.1 µg/mL for the second.

Going from B11 to B12, the “pseudovirus neutralization IC50” value falls from > 10 µg/mL to 0.0778 µg/mL.

Biological target: SARS-CoV-2 Omicron BA.2 spike pseudovirus
Assay: as above
Experimental: as §1

Going from B1 to B2, the “pseudovirus neutralization IC50” value rises from 0.0187 µg/mL to 6.11 µg/mL (330-fold).

Going from B3 to B4, the “pseudovirus neutralization IC50” value falls from 0.931 µg/mL to 0.00355 µg/mL (260-fold).

B5 and B6 cannot be ordered by “pseudovirus neutralization IC50” value: > 10 µg/mL for the first, > 10 µg/mL for the second.

B7 and B8 cannot be ordered by “pseudovirus neutralization IC50” value: > 10 µg/mL for the first, > 10 µg/mL for the second.

Going from B9 to B10, the “pseudovirus neutralization IC50” value rises from 2.09 µg/mL to > 10 µg/mL.

Going from B11 to B12, the “pseudovirus neutralization IC50” value falls from > 10 µg/mL to 0.0905 µg/mL.

Biological target: SARS-CoV-2 Omicron BA.2.75 spike pseudovirus
Assay: as above
Experimental: as §1

Compared with B1, B2 is 120-fold higher in “pseudovirus neutralization IC50” value: 0.0194 µg/mL for the first, 2.34 µg/mL for the second.

Compared with B3, B4 is lower in “pseudovirus neutralization IC50” value: > 10 µg/mL for the first, 0.00834 µg/mL for the second.

B5 and B6 cannot be ordered by “pseudovirus neutralization IC50” value: > 10 µg/mL for the first, > 10 µg/mL for the second.

B7 and B8 cannot be ordered by “pseudovirus neutralization IC50” value: > 10 µg/mL for the first, > 10 µg/mL for the second.

First: B9
Second: B10
The “pseudovirus neutralization IC50” value of the first is lower: 0.939 µg/mL for the first, > 10 µg/mL for the second.

First: B11
Second: B12
The “pseudovirus neutralization IC50” value of the first is higher: > 10 µg/mL for the first, 0.0672 µg/mL for the second.

Biological target: SARS-CoV-2 Omicron BA.5 spike pseudovirus
Assay: as above
Experimental: as §1

Going from B1 to B2, the “pseudovirus neutralization IC50” value rises from 0.109 µg/mL to 5.41 µg/mL (50-fold).

First: B3
Second: B4
The “pseudovirus neutralization IC50” value of the first is 2.7-fold lower: 0.973 µg/mL for the first, 2.66 µg/mL for the second.

B5 and B6 cannot be ordered by “pseudovirus neutralization IC50” value: > 10 µg/mL for the first, > 10 µg/mL for the second.

B7 and B8 cannot be ordered by “pseudovirus neutralization IC50” value: > 10 µg/mL for the first, > 10 µg/mL for the second.

Going from B9 to B10, the “pseudovirus neutralization IC50” value rises from 4.34 µg/mL to 8.41 µg/mL (1.9-fold).

Going from B11 to B12, the “pseudovirus neutralization IC50” value falls from > 10 µg/mL to 0.167 µg/mL.

Biological target: SARS-CoV-2 Omicron BQ.1.1 spike pseudovirus
Assay: as above
Experimental: as §1

Going from B1 to B2, the “pseudovirus neutralization IC50” value rises from 4.2 µg/mL to > 10 µg/mL.

B4 and B5 cannot be ordered by “pseudovirus neutralization IC50” value: > 10 µg/mL for the first, > 10 µg/mL for the second.

B6 and B7 cannot be ordered by “pseudovirus neutralization IC50” value: > 10 µg/mL for the first, > 10 µg/mL for the second.

B8 and B9 cannot be ordered by “pseudovirus neutralization IC50” value: > 10 µg/mL for the first, > 10 µg/mL for the second.

B10 and B11 cannot be ordered by “pseudovirus neutralization IC50” value: > 10 µg/mL for the first, > 10 µg/mL for the second.

B12 was tested, and the “pseudovirus neutralization IC50” value was > 10 µg/mL.

Biological target: SARS-CoV-2 Omicron XBB spike pseudovirus
Assay: as above
Experimental: as §1

Going from B1 to B2, the “pseudovirus neutralization IC50” value rises from 0.174 µg/mL to 6.41 µg/mL (37-fold).

B3 and B4 cannot be ordered by “pseudovirus neutralization IC50” value: > 10 µg/mL for the first, > 10 µg/mL for the second.

B5 and B6 cannot be ordered by “pseudovirus neutralization IC50” value: > 10 µg/mL for the first, > 10 µg/mL for the second.

B7 and B8 cannot be ordered by “pseudovirus neutralization IC50” value: > 10 µg/mL for the first, > 10 µg/mL for the second.

B9 and B10 cannot be ordered by “pseudovirus neutralization IC50” value: > 10 µg/mL for the first, > 10 µg/mL for the second.

B11 and B12 cannot be ordered by “pseudovirus neutralization IC50” value: > 10 µg/mL for the first, > 10 µg/mL for the second.

Biological target: SARS-CoV-2 early D614G spike pseudovirus
Assay: as above
Experimental: as §1

First: B1
Second: B2
The “pseudovirus neutralization IC50” value of the first is 12-fold lower: 0.0183 µg/mL for the first, 0.221 µg/mL for the second.

First: B3
Second: B4
The “pseudovirus neutralization IC50” value of the first is 110-fold higher: 0.471 µg/mL for the first, 0.00417 µg/mL for the second.

B5 and B6 cannot be ordered by “pseudovirus neutralization IC50” value: > 10 µg/mL for the first, > 10 µg/mL for the second.

First: B7
Second: B8
The “pseudovirus neutralization IC50” value of the first is higher: > 10 µg/mL for the first, 6.67 µg/mL for the second.

Compared with B9, B10 is 140-fold higher in “pseudovirus neutralization IC50” value: 0.0044 µg/mL for the first, 0.607 µg/mL for the second.

Compared with B11, B12 is 200-fold lower in “pseudovirus neutralization IC50” value: 6.88 µg/mL for the first, 0.0345 µg/mL for the second.
